HIV-1 NL4-3 point mutations in non-coding ends: replication capacity

Positions lie in the non-coding 5' end or the 3' LTR of the genome. Changes in the 5' U3 are not copied into viral RNA and those in the 3' R are mostly lost on reverse transcription, so a low index there need not show harm (not discussed in the paper).

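Seven fragments of pNL4-3 were mutated by error-prone PCR, and each virus pool was passaged in CEM T cells. Sequencing gave the RC index: frequency after two rounds over frequency in the input plasmid.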

A higher RC index is a better tolerated change; approximate classes are lethal up to 0.1, attenuated to 0.2, tolerated above. The authors read an index above 1 as above wild type (1.9% of all changes in the genome).

base,region,RC index
T283C,5' U3,0.282
G9435A,3' U3,1.03
C425T,5' U3,0.409
A9413T,3' U3,1.51
C446T,5' U3,0.836
C472A,5' R,0.694
T9430C,3' U3,0.454
A9494T,3' U3,0.449
C9573A,3' R,0.807
A220G,5' U3,0.0702
T459A,5' R,0.561
G366A,5' U3,0.304
G9468A,3' U3,0.574
A9605G,3' R,0.140
T9594C,3' R,0.314
A551G,5' R,0.337
G418T,5' U3,0.492
A163T,5' U3,0.0559
A9596T,3' R,0.0693
T405C,5' U3,0.139
A9423T,3' U3,0.825
G783A,5' U5/leader,0.329
T9590C,3' R,0.128
G497T,5' R,0.778
G9484T,3' U3,1.58
C310A,5' U3,0.174
G406A,5' U3,0.290
C372T,5' U3,0.218
T9541C,3' R,0.292
C9443G,3' U3,0.373
G9441A,3' U3,0.519
T9463G,3' U3,0.174
T398G,5' U3,0.157
G533A,5' R,0.919
C207A,5' U3,0.112
C9461G,3' U3,0.163
G279T,5' U3,0.0860
C458T,5' R,0.435
G404A,5' U3,0.243
A759G,5' U5/leader,0.0899
G9482A,3' U3,1.02
A747T,5' U5/leader,0.0221
A9563T,3' R,0.299
T155A,5' U3,0.0772
A9424C,3' U3,0.825
C280A,5' U3,0.195
G733A,5' U5/leader,0.0549
G294T,5' U3,0.409
T345C,5' U3,0.180
G302T,5' U3,0.129
G376A,5' U3,0.458
G9499T,3' U3,0.317
G249A,5' U3,0.0357
G455T,5' R,0.383
T284A,5' U3,0.0813
A9453G,3' U3,0.909
A9503T,3' U3,0.391
C549T,5' R,0.913
C9577A,3' R,0.294
G9520C,3' U3,0.355
T9523C,3' U3,0.598
C9448A,3' U3,0.398

The first 7 entries again:

base	region	RC index
T283C	5' U3	0.282
G9435A	3' U3	1.03
C425T	5' U3	0.409
A9413T	3' U3	1.51
C446T	5' U3	0.836
C472A	5' R	0.694
T9430C	3' U3	0.454

Since each clone held several changes (about five per kb), neutral changes can read low. Nucleotide positions follow pNL4-3.

Reference: Al-Mawsawi et al. 2014, doi:10.1186/s12977-014-0124-6.